A mixed list of measured activities; the numbers were collected in NIAID ChemDB.

Shared fields: tests in culture; agent: Mycobacterium tuberculosis

An empty or dashed field is not shown. Inhibition is in % at the dose shown (toxicity tests: loss of growth or viability). ECn is the concentration giving n% inhibition of infection, replication or growth. MIC bound: limit read from a one-dose screen. Neighbouring rows are from separate reports. MIC50, MIC90 and the like: level of inhibition, or share of isolates inhibited.

smiles,read-out,conditions,mutations,strain,tested at,read by,value
NC(=S)N=Nc1c(O)cc(Nc2ccc(Cl)cc2Cl)c2ccccc12,inhibition,-,-,H37Rv,12.5 µg/mL,BACTEC,92%
COc1cc(C(O)(CCN(C)C)C(c2cc(-c3ccc(C)cc3)cnc2OC)c2cccc(OC)c2F)cc(OC)n1,MIC90,-,-,H37Rv,-,resazurin,3.7 µM
O=C(N/N=C/c1ccc(O)cc1O)c1ccncc1,MIC bound,-,-,H37Rv,-,BACTEC,≤128 µg/mL
Clc1ccc(-c2cc(-c3cccc(Oc4ccccc4)c3)on2)cc1,inhibition,-,-,H37Rv,1 µg/mL,-,100%
COC(=O)c1nc(=S)[nH]c(C(=O)OC)c1C(=O)c1ccccn1,inhibition,-,-,H37Rv,12.5 µg/mL,BACTEC,0%
O=C1CSc2nnc(COc3ccc4ccccc4c3)n2N1C(=O)c1ccncc1,MIC,-,-,-,-,-,100 µg/mL
COc1nc2ccc(Br)cc2cc1/C=N/NC(=O)c1ccncc1,MIC,-,-,H37Rv,-,resazurin,6.25 µg/mL
COc1cc(C(O)(CCN(C)C)C(c2cc(-c3ccccc3Cl)cnc2OC)c2cccc(OC)c2F)cc(OC)n1,EC90,-,-,H37Rv,-,fluorescence,9.8 µM
CC1(C)CCc2c(c3ccccc3c3nc(-c4ccccc4C#N)oc23)O1,MIC,-,-,ATCC 35822,-,resazurin,17.6 µg/mL
COc1c(N2CCNC(C)C2)c(F)cc2c(=O)c(C(=O)O)cn(C3CC3)c12,MIC90,-,-,25 strains,-,-,0.2 µg/mL
COc1cc(C(O)(CCN(C)C)C(c2cc(-c3ccc(F)cc3)cnc2OC)c2cccc(OC)c2F)cc(OC)n1,EC90,-,-,H37Rv,-,fluorescence,4.56 µM
c1ccc2c(c1)nnn1c3cnccc3nc21,inhibition,-,-,H37Rv,12.5 µg/mL,BACTEC,100%
Cc1ccc(-c2cc(CN3CCSCC3)c(C)n2-c2ccc(F)cc2)cc1,MIC,-,-,H37Rv,-,-,0.5 µg/mL
CO[C@H]1/C=C/O[C@@]2(C)Oc3c(C)c(O)c4c(O)c(cc(O)c4c3C2=O)NC(=O)/C(C)=C\C=C\[C@H](C)[C@H](O)[C@@H](C)[C@@H](O)[C@@H](C)[C@H](OC(C)=O)[C@@H]1C,MIC,-,-,H37Rv (amithiozone-resistant),-,-,6.3 µg/mL
COc1cc(OC)c(C/C=C/c2ccccc2)cc1O,MIC bound,-,-,H37Rv,-,BACTEC,>12.5 µg/mL
O=C1CSc2nnc(-c3ccccc3Cl)n2N1C(=O)c1ccncc1,MIC,-,-,-,-,-,100 µg/mL
COc1nc2ccc(Cl)cc2cc1C1C(Cl)C(=O)N1NC(=O)c1ccc(-n2cccc2)cc1,MIC,-,-,H37Rv,-,resazurin,6.25 µg/mL
CO[C@H]1/C=C/O[C@@]2(C)Oc3c(C)c(O)c4c(O)c(c(/C=N/N5CCN(C)CC5)c(O)c4c3C2=O)NC(=O)/C(C)=C\C=C\[C@H](C)[C@H](O)[C@@H](C)[C@@H](O)[C@@H](C)[C@H](OC(C)=O)[C@@H]1C,MIC90,-,-,10 strains,-,-,0.06 µg/mL
COc1nc2ccccc2cc1/C=N/NC(=O)c1ccc(-n2cccc2)cc1,MIC,-,-,H37Rv,-,resazurin,6.25 µg/mL
O=[N+]([O-])c1ccc(CS(=O)(=O)c2nnc(-c3ccc([N+](=O)[O-])s3)s2)cc1,MIC,-,-,-,-,-,>6.25 µg/mL
CC(C)=Cc1cc(CCC/C(C)=C/Cc2c(O)cc(C)c(C(=O)O)c2O)co1,inhibition,-,-,H37Rv,12.5 µg/mL,BACTEC,26%
Fc1ccc(N2CN(c3ccc(F)c(Cl)c3)CN(c3ccc(F)c(Cl)c3)C2)cc1Cl,MIC,-,-,H37Rv,-,colony count / visual reading,62.5 µg/mL
Cc1ccccc1CN1C2=NCCN2C(=O)C2=C1CCN(Cc1ccccc1)C2,inhibition,-,-,H37Rv,6.25 µg/mL,-,80%
Cn1c([N+](=O)[O-])cnc1-c1nnc(S(=O)Cc2cccc([N+](=O)[O-])c2)s1,MIC,-,-,-,-,-,>6.25 µg/mL
Cc1ccc(C(=O)Nc2ccc(S(=O)(=O)O)c3cc(S(=O)(=O)O)cc(S(=O)(=O)O)c23)cc1NC(=O)c1cccc(NC(=O)Nc2cccc(C(=O)Nc3cc(C(=O)Nc4ccc(S(=O)(=O)O)c5cc(S(=O)(=O)O)cc(S(=O)(=O)O)c45)ccc3C)c2)c1,inhibition,-,-,H37Rv,12.5 µg/mL,BACTEC,28%
Cc1ccc(OCc2nnc3n2N(C(=O)c2ccncc2)C(=O)CS3)cc1,MIC,-,-,-,-,-,100 µg/mL
NNC(=O)c1ccncc1,MIC,-,-,INH-r,-,resazurin,>100 µg/mL
COc1cc(C(O)(CCN(C)C)C(c2cc(-c3cccnc3)cnc2OC)c2cccc(OC)c2F)cc(OC)n1,EC90,-,-,H37Rv,-,fluorescence,17.11 µM
COc1cc([C@@](O)(CCN(C)C)[C@@H](c2cc(-c3ccc(OC(F)(F)F)cc3)cnc2OC)c2cccc(OC)c2F)cc(OC)n1,inhibition,-,-,H37Rv,1 µM,resazurin,0%
CCS(=O)(=O)c1ccc(C(=O)NN)cc1,inhibition,-,-,H37Rv,12.5 µg/mL,BACTEC,0%
Fc1ccccc1N1CN(c2ccccc2F)CN(c2ccccc2F)C1,MIC,-,-,H37Rv,-,colony count / visual reading,100 µg/mL
COC(=O)C1(C)C=CC(=O)C2(C)C1C(O)C1OC3CC(c4ccoc4)C(C)=C3C1(C)C2CC(=O)O,MIC bound,-,-,H37Rv,-,BACTEC,>12.8 µg/mL
CC(C)NCCNC(C)C,MIC,-,-,H37Rv,-,-,8 µg/mL
O=c1oc2ccc(Br)cc2cc1-c1cs/c(=N/N=C/c2ccc(Br)cc2)n1C1CCCCC1,inhibition,-,-,H37Rv,6.25 µg/mL,-,6%
O=C(c1ccncc1)N1C(c2ccccc2)=C(c2ccccc2)Sc2nnc(COc3cccc4ccccc34)n21,MIC,-,-,-,-,-,100 µg/mL
CC1(C)CC(N=c2cc3n(-c4ccc(Cl)cc4Cl)c4ccccc4nc-3cc2Nc2ccc(Cl)cc2Cl)CC(C)(C)N1,inhibition,-,-,H37Ra,0.6 µg/mL,BACTEC,56%
CCn1cc(C(=O)O)c(=O)c2cc(F)c(N3CCN(C)CC3)cc21,MIC,-,-,Isolate 870729,-,-,2 µg/mL
CN[C@@H]1[C@H](O[C@H]2[C@H](O[C@H]3[C@H](O)[C@@H](O)[C@H](N=C(N)N)[C@@H](O)[C@@H]3N=C(N)N)O[C@@H](C)[C@]2(O)C=O)O[C@@H](CO)[C@H](O)[C@H]1O,MIC99,14 d,Streptomycin-resistant,Praha 1,-,visual reading / absorbance,16 µM
C/C(=N/NC(=S)NCc1ccccc1)c1nccnc1C,MIC,-,-,KM-R,-,-,1.6 µg/mL
Fc1ccc(N2CN(c3ccc(F)cc3)CN(c3ccc(F)cc3)C2)cc1,MIC,-,-,H37Rv,-,colony count / visual reading,25 µg/mL
Cn1c([N+](=O)[O-])cnc1-c1nnc(S(=O)(=O)Cc2ccc([N+](=O)[O-])cc2)s1,MIC,-,-,-,-,-,>6.25 µg/mL
O=c1oc2ccc(Br)cc2cc1-c1cs/c(=N/N=C/c2ccc(F)cc2)n1C1CCCCC1,EC50,-,-,H37Rv,-,-,>6.25 µg/mL
Nc1ccccc1-c1nnc2n1N(C(=O)c1ccncc1)C(=O)CS2,MIC,-,-,-,-,-,10 µg/mL
CC1(C)CCc2c(c3ccccc3c3nc(-c4cccc(C#N)c4)oc23)O1,MIC,-,-,ATCC 27294,-,resazurin,35.2 µg/mL
S=C(NCCNC(=S)[S][Sn]([c]1ccccc1)([c]1ccccc1)[c]1ccccc1)[S][Sn]([c]1ccccc1)([c]1ccccc1)[c]1ccccc1,MIC bound,-,-,H37Rv,-,BACTEC,≤12.5 µg/mL
O=C1CSc2nnc(COc3cccc4ccccc34)n2N1C(=O)c1ccncc1,MIC,-,-,-,-,-,100 µg/mL
COc1cc2cc[n+](C)c(Cc3ccc(Oc4cc(Cc5c6cc(OC)c(OC)cc6cc[n+]5C)ccc4OC)cc3)c2cc1OC.[Cl-].[Cl-],MIC,-,-,H37Rv,-,BACTEC,≥12.5 µg/mL
COc1ccc(/C=N/N=c2/scc(-c3cc4cc(Br)ccc4oc3=O)n2C2CCCCC2)cc1OC,inhibition,-,-,H37Rv,6.25 µg/mL,-,2%
CC1COc2c(N3CCN(C)CC3)c(F)cc3c(=O)c(C(=O)O)cn1c23,MIC,-,-,H37Rv,-,-,<1 µg/mL
CSC(=S)N/N=C(\C)c1ccc[nH]1,MIC,-,-,H37Rv,-,BACTEC,3.13 µg/mL
COc1cc(C(O)(CCN(C)C)C(c2cc(-c3ccncc3)cnc2OC)c2cccc(OC)c2F)cc(OC)n1,EC90,-,-,H37Rv,-,fluorescence,28.06 µM
O=c1oc2ccccc2cc1-c1cs/c(=N\N=C\c2cc([N+](=O)[O-])ccc2O)n1C1CCCCC1,MIC,-,-,H37Rv,-,-,>6.25 µg/mL
CNC(=O)Oc1c(C)[nH]ccc1=O,MIC bound,-,-,H37Rv,-,BACTEC,>12.5 µg/mL
CCOc1ccccc1CNCCNC(c1ccccc1)c1ccccc1,MIC,-,-,-,-,-,50 µM
CCCCCCCCCCCCCCCC(=O)OCCNC(=O)c1ccccc1SSc1ccccc1C(=O)NCCOC(=O)CCCCCCCCCCCCCCC,MIC,-,-,H37Rv,-,-,50 µg/mL
CCOC(=O)/C=C(\C)NC1CC(=O)NC1=O,MIC bound,-,-,H37Rv,-,BACTEC,>12.5 µg/mL
Cn1c([N+](=O)[O-])cnc1-c1nnc(S(=O)(=O)Cc2ccccc2[N+](=O)[O-])s1,MIC,-,-,-,-,-,6.25 µg/mL
CCCCCc1cc(O)cc2c1Oc1cc(O)cc(C(=O)CCCC)c1C(=O)O2,MIC,-,-,H37Rv,-,BACTEC,64 µg/mL
CC(C)[C@H]1OC(=O)[C@H](Cc2ccccc2)N(C)C(=O)[C@@H](C(C)C)OC(=O)[C@H](Cc2ccccc2)N(C)C(=O)[C@@H](C(C)C)OC(=O)[C@H](Cc2ccccc2)N(C)C1=O,MIC,-,-,H37Ra,-,-,12.5 µg/mL
CSC(=S)n1nc(-c2cccs2)c(N=Nc2ccc(Cl)cc2)c1C(F)(F)F,MIC bound,-,-,H37Rv,-,BACTEC,≤128 µg/mL
CO[C@H]1/C=C/O[C@@]2(C)Oc3c(C)c(O)c4c(O)c(c(/C=N/N5CCN(C6CCCC6)CC5)c(O)c4c3C2=O)NC(=O)/C(C)=C\C=C\[C@H](C)[C@H](O)[C@@H](C)[C@@H](O)[C@@H](C)[C@H](O)[C@@H]1C,MIC,-,-,Isolate 880902 rifampicin-resistant,-,-,>64 µg/mL
COc1nc2ccc(C)cc2cc1C1C(Cl)C(=O)N1NC(=O)c1ccc(-n2cccc2)cc1,MIC,-,-,H37Rv,-,resazurin,6.25 µg/mL
O=C(c1ccccc1)N1N=C(c2ccccn2)CC1c1cccc(Oc2ccccc2)c1,inhibition,-,-,H37Rv,1 µg/mL,-,100%
Fc1ccc(C(F)(F)F)cc1N1CN(c2cc(C(F)(F)F)ccc2F)CN(c2cc(C(F)(F)F)ccc2F)C1,MIC,-,-,H37Rv,-,colony count / visual reading,50 µg/mL
CCC[C@H]1C[C@@H]2CC[C@@H](O2)[C@H](C)C(=O)O[C@@H]([C@H](C)[C@H]2CC[C@@H](C[C@@H](CCC)N(C)C)O2)[C@H](C)[C@@H]2CC[C@@H](O2)[C@@H](C)C(=O)O1,MIC,-,-,11 isolates,-,-,2 µg/mL
c1ccc2c(c1)nc1cc(NC3CCCCC3)c(=NC3CCCCC3)cc-1n2C1CCCCC1,MIC,-,-,ETA-R,-,-,6.3 µg/mL
Cc1ccc(N2CN(c3ccc(C)cc3)CN(c3ccc(C)cc3)C2)cc1,MIC,-,-,H37Rv,-,colony count / visual reading,250 µg/mL
CCCCCCCCCCCNCCNC(C)CC(C)C,MIC,-,-,-,-,-,25 µM
Fc1cccc(N2CN(c3cccc(F)c3)CN(c3cccc(F)c3)C2)c1,MIC,-,-,H37Rv,-,colony count / visual reading,62.5 µg/mL
COc1cc(C(O)(CCN(C)C)C(c2cc(-c3ccccc3F)cnc2OC)c2cccc(OC)c2F)cc(OC)n1,MIC90,-,-,H37Rv,-,resazurin,10 µM
COc1cc(C(O)(CCN(C)C)C(c2cc(-c3ccccn3)cnc2OC)c2cccc(OC)c2F)cc(OC)n1,EC90,-,-,H37Rv,-,fluorescence,7.65 µM
c1ccc(N2CN(c3ccccc3)CN(c3ccccc3)C2)cc1,MIC,-,-,H37Rv,-,colony count / visual reading,125 µg/mL
COc1cc(C(O)(CCN(C)C)C(c2cc(-c3ccccc3F)cnc2OC)c2cccc(OC)c2F)cc(OC)n1,EC90,-,-,H37Rv,-,fluorescence,9.96 µM
C[N+]1(C)C[C@H](O)C[C@H]1C(=O)[O-],inhibition,-,-,H37Rv,12.5 µg/mL,BACTEC,4%
COc1cc(CNCCNC(C)Cc2c[nH]c3ccccc23)cc(OC)c1OC,MIC,-,-,-,-,-,50 µM

Again, the opening 5 rows:

{"smiles": "NC(=S)N=Nc1c(O)cc(Nc2ccc(Cl)cc2Cl)c2ccccc12", "read-out": "inhibition", "strain": "H37Rv", "tested at": "12.5 µg/mL", "read by": "BACTEC", "value": "92%"}
{"smiles": "COc1cc(C(O)(CCN(C)C)C(c2cc(-c3ccc(C)cc3)cnc2OC)c2cccc(OC)c2F)cc(OC)n1", "read-out": "MIC90", "strain": "H37Rv", "read by": "resazurin", "value": "3.7 µM"}
{"smiles": "O=C(N/N=C/c1ccc(O)cc1O)c1ccncc1", "read-out": "MIC bound", "strain": "H37Rv", "read by": "BACTEC", "value": "≤128 µg/mL"}
{"smiles": "Clc1ccc(-c2cc(-c3cccc(Oc4ccccc4)c3)on2)cc1", "read-out": "inhibition", "strain": "H37Rv", "tested at": "1 µg/mL", "value": "100%"}
{"smiles": "COC(=O)c1nc(=S)[nH]c(C(=O)OC)c1C(=O)c1ccccn1", "read-out": "inhibition", "strain": "H37Rv", "tested at": "12.5 µg/mL", "read by": "BACTEC", "value": "0%"}